Construct, isoform or probe ends are uncertain for at least one entry. At least one verdict was read from the data and is not stated in words by the source.
Biological target: CT-Ler (Escherichia coli EHEC O157:H7) (UniProt Q7DB51)
Assay: fluorescence anisotropy
Conditions: positive control; Anisotropy: 40 mM HEPES pH 7.5, 60 mM K-glutamate, 0.01% NaN3, 20 C; recombinant protein; residues 70-116; protein details: N-terminal His6 (pHAT2)

Question: Does “GGCAAAAAACGGCAAAAAACGGCAAAAAAC (double strand) [(GGCAAAAAAC)3]” bind?
Answer: Result: binds
